A mixed list of measured activities; the numbers were collected in NIAID ChemDB.

Common to all: whole-cell or culture tests; organism: HIV-1; read by: cytopathic effect; endpoint: EC50

Blank or dashed fields: not listed here. ECn is the concentration giving n% inhibition of infection, replication or growth. Rows are shuffled and stem from different studies.

SMILES	mutations	strain or isolate	cell line	result
O=c1[nH]c(=O)n(Cc2cn(COCCO)nn2)cc1I		IIIB	MT-4	>100 µg/mL
Cc1cc(C(Cl)c2ccc(C(C)(C)C)cc2)nc(Nc2ccc(C#N)cc2)n1	K103N + Y181C	IIIB	MT-4	31.9 µM
COc1cccc2c(-c3cccs3)cc(-c3cc(-c4cccs4)c4cccc(OC)c4c3O)c(O)c12		RF	CEM + CEM-SS	>100 µM
COc1ccc(C(Cl)c2ccnc(Nc3ccc(C#N)cc3)n2)cc1	K103N + Y181C	IIIB	MT-4	33.6 µM
COc1cc(C)cc2c(-c3ccc(O)cc3O)cc(-c3cc(-c4ccc(O)cc4O)c4cc(C)cc(OC)c4c3O)c(O)c12		RF	CEM + CEM-SS	>100 µM
C#C[C@H](O)C1=C[C@@H](n2cnc3c(N)ncnc32)[C@H](O)[C@@H]1O			CEM	>40 µg/mL
C#CCn1cc(I)c(=O)[nH]c1=O		IIIB	MT-4	>100 µg/mL
COc1cc(OC)c2c(O)c(-c3cc(-c4ccccc4)c4cc(OC)cc(OC)c4c3O)cc(-c3ccccc3)c2c1		RF	CEM + CEM-SS	>100 µM
Cc1ccc(-c2nnc(-c3ccc(N)cc3)o2)cc1		IIIB	MT-4	>22 µg/mL
COc1cccc2c(-c3ccccc3)cc(-c3cc(-c4ccccc4)c4cccc(OC)c4c3O)c(O)c12		RF	CEM + CEM-SS	>100 µM
CC(C)CCC[C@@H](C)[C@H]1CC[C@H]2[C@@H]3CC[C@H]4C[C@@H](CCC=C(c5cc(Cl)c(O)c(C(=O)O)c5)c5cc(Cl)c(O)c(C(=O)O)c5)CC[C@]4(C)[C@H]3CC[C@]12C	Pyridinone-resistant (RT K103N Y181C)	A17	MT-4	20 µM
O=C(O)CCC(CCC(=O)O)(CCC(=O)O)NC(=O)CCC(CCC(=O)NC(CCC(=O)O)(CCC(=O)O)CCC(=O)O)(CCC(=O)NC(CCC(=O)O)(CCC(=O)O)CCC(=O)O)NC(=O)CCCOC(=O)C1(C(=O)OCCCC(=O)NC(CCC(=O)NC(CCC(=O)O)(CCC(=O)O)CCC(=O)O)(CCC(=O)NC(CCC(=O)O)(CCC(=O)O)CCC(=O)O)CCC(=O)NC(CCC(=O)O)(CCC(=O)O)CCC(=O)O)C2c3cc4c5c6c3-c3c(cc7c8c3C6C3c6c-5c(cc5ccc9cc(c-8c3c9c65)C7)C4)C21		xxBRU	PBMC	0.19 µM
Cc1ccc(C)c(CSc2c(Cl)ccc[n+]2[O-])c1		IIIB	CEM	0.05 µg/mL
COc1cc(C)cc2c(-c3cccc(N)c3)cc(-c3cc(-c4cccc(N)c4)c4cc(C)cc(OC)c4c3O)c(O)c12		RF	CEM + CEM-SS	>100 µM
COc1ccc(-c2nnc(-c3ccc(N)cc3)o2)cc1		IIIB	MT-4	>98 µg/mL
Cc1ccc(C(C)S(=O)(=O)c2c(C)ccc[n+]2[O-])c(C)c1		MN	CEM	36 µg/mL
CC[C@@H](O)C1=C[C@@H](n2cnc3c(N)ncnc32)[C@H](O)[C@@H]1O			CEM	>200 µg/mL
C#CCn1cnc2c(N)ncnc21		IIIB	MT-4	>100 µg/mL
O=C1CSC(c2c(Cl)cccc2Cl)N1c1cc(Cl)cc(Cl)c1		IIIB	MT-4	0.28 µM
C#CCn1cc(Cl)c(=O)[nH]c1=O		IIIB	MT-4	>100 µg/mL
Nc1ncnc2c1ncn2[C@@H]1C=C[C@H](OCP(=O)(O)O)O1	RT-M184V		MT-2	82.6 µM
O=C1CSC(c2c(F)cccc2F)N1c1cc(F)cc(F)c1		IIIB	MT-4	0.54 µM
Cc1cc(C)c(CS(=O)c2cccc[n+]2[O-])c(C)c1	RT-K103N		CEM	11 µg/mL
CC[C@@H](NS(=O)(=O)c1ccc(OC)cc1)c1n[nH]c(=S)o1		IIIB	MT-4	>125 µg/mL
COc1cc(C)cc2c(-c3cccs3)cc(-c3cc(-c4cccs4)c4cc(C)cc(OC)c4c3O)c(O)c12		RF	CEM + CEM-SS	>100 µM
C=C1CN(S(=O)(=O)c2ccc(C)cc2)CCCN(Cc2ccccc2)CCCN(S(=O)(=O)c2ccc(C)cc2)C1		RF	PBMC	1.9 µM
Cc1ccc(C)c(C(Cl)S(=O)(=O)c2cc(C)cc[n+]2[O-])c1		MN	CEM	≥4 µg/mL
COP(=O)(c1cc(C)cc(CCC#N)c1)c1c(C(N)=O)[nH]c2ccc(Cl)c(F)c12	K103N/Y181C	IIIB	MT-4	0.0047 µM
COc1cccc(N2C(=O)CSC2c2c(F)cccc2F)c1		IIIB	MT-4	11.79 µM
Nc1ncnc2c1ncn2Cc1cn(COCCO)nn1		IIIB	MT-4	>100 µg/mL
CC[C@@H](NS(=O)(=O)c1ccc(Cl)cc1)c1n[nH]c(=S)o1		IIIB	MT-4	>122 µg/mL
C=C[C@H](O)C1=C[C@@H](n2cnc3c(N)ncnc32)[C@H](O)[C@@H]1O			CEM	>200 µg/mL
CCc1cccc(N2C(=O)CSC2c2c(Cl)cccc2Cl)c1		IIIB	MT-4	0.156 µM
Cc1cnc(Nc2ccc(C#N)cc2)nc1C(Cl)c1ccc(Br)cc1	K103N + Y181C	IIIB	MT-4	10.3 µM